Results of unrelated studies side by side (data: NIAID ChemDB).

Common to all: toxicity to cultured cells; cells: HepG2.2.15; read-out: CC50

CCn is the concentration with n% toxicity to the cells.

structure	value
CC1(C)[C@@H](O)CC[C@]2(C)[C@H]3C(=O)C=C4[C@@H]5C[C@@](C)(C(=O)OCc6ccc(C(F)(F)F)cc6)CC[C@]5(C)CC[C@@]4(C)[C@]3(C)CC[C@@H]12	>1370 µM
C[C@H](C[C@H](OC(=O)COc1ccccc1)[C@@H](OC(=O)COc1ccccc1)C(C)(C)OC(=O)COc1ccccc1)C1=C2C[C@H](OC(=O)COc3ccccc3)[C@H]3[C@@]4(C)CCC(=O)C(C)(C)[C@@H]4CC[C@]3(C)[C@@]2(C)CC1	>1400 µM
Cc1cccc(NC(=O)c2c(C)noc2C)c1	>100 µM
C[C@H](C[C@H](OC(=O)COc1cc(Cl)c(Cl)cc1Cl)[C@@H](OC(=O)COc1cc(Cl)c(Cl)cc1Cl)C(C)(C)OC(=O)COc1cc(Cl)c(Cl)cc1Cl)C1=C2C[C@H](OC(=O)COc3cc(Cl)c(Cl)cc3Cl)[C@H]3[C@@]4(C)CCC(=O)C(C)(C)[C@@H]4CC[C@]3(C)[C@@]2(C)CC1	>1200 µM
COc1nc2ccc(Cl)cc2c(-c2ccccc2Cl)c1CCO	141.2 µM
CC1(C)[C@@H](O)CC[C@]2(C)[C@H]3C(=O)C=C4[C@@H]5C[C@@](C)(C(=O)OCCCBr)CC[C@]5(C)CC[C@@]4(C)[C@]3(C)CC[C@@H]12	160.1 µM
COC(=O)C1=C(CN2CC3CC[C@H](C2)O3)NC(c2ncc(F)cc2F)=N[C@H]1c1ccc(F)cc1Cl	4 µM
CC1(C)[C@@H](O)CC[C@]2(C)[C@H]3C[C@H]4O[C@]45[C@@H]4C[C@@](C)(C(=O)O)CC[C@]4(C)CC[C@@]5(C)[C@]3(C)CC[C@@H]12	35.71 µM
CCOCC(=O)O[C@H]1C[C@H]2[C@]3(C)C(=O)C[C@]4(C)C([C@@](C)(O)C(=O)CCC(C)(C)OC(C)=O)[C@H](OC(=O)COCC)C[C@@]4(C)[C@@H]3C[C@H]3O[C@]32C(C)(C)[C@@H]1OC(=O)COCC	>633.3 µM
CC1(C)[C@@H](OC(=O)c2cc(=O)c3ccccc3o2)CC[C@]2(C)[C@H]3CC=C4[C@@H]5C[C@@](C)(C(=O)OCC(N)=O)CC[C@]5(C)CC[C@@]4(C)[C@]3(C)CC[C@@H]12	>944 µM
CCC(=O)O[C@H]1C[C@H]2[C@]3(C)C(=O)C[C@]4(C)C([C@@](C)(O)C(=O)CCC(C)(C)OC(C)=O)[C@H](OC(=O)CC)C[C@@]4(C)[C@@H]3C[C@H]3O[C@]32C(C)(C)[C@@H]1OC(=O)CC	>1667 µM
COC(=O)C1=C(CN2CCC3(CN(C)CCO3)C2)NC(c2ncc(F)cc2F)=N[C@H]1c1ccc(F)cc1Cl	25 µM
OCCc1c(N2CCNCC2)nc2ccc(Cl)cc2c1-c1ccccc1Cl	<5 µM
Cc1cc(NC(=O)c2cc(-c3ccccc3)nc3ccccc23)ccc1F	>100 µM
OCCc1c(OCc2c(Cl)cccc2Cl)nc2ccc(Cl)cc2c1-c1ccccc1Cl	38.5 µM
C=CCCOC(=O)[C@@]1(C)CC[C@]2(C)CC[C@]3(C)C(=CC(=O)[C@@H]4[C@@]5(C)CC[C@H](O)C(C)(C)[C@@H]5CC[C@]43C)[C@@H]2C1	>1750 µM
CC(=O)O[C@@H](C[C@@H](C)C1=C2C[C@H](OC(C)=O)[C@H]3[C@@]4(C)CCC(=O)C(C)(C)[C@@H]4CC[C@]3(C)[C@@]2(C)CC1)[C@@H](OC(C)=O)C(C)(C)OC(C)=O	1600 µM
CC(=O)OC(C)(C)CCC(=O)[C@](C)(O)C1[C@H](O)C[C@@]2(C)[C@@H]3CC=C4[C@@H](C[C@H](O)[C@@H](O)C4(C)C)[C@]3(C)C(=O)C[C@]12C	66.2 µM
COC(=O)C1=C(CN2CCN(C(=O)OC)CC2)NC(c2ncccc2F)=NC1c1ccc(F)cc1Br	14 µM
CC(=O)O[C@H]1C[C@H]2[C@]3(C)C(=O)C[C@]4(C)C([C@@](C)(O)C(=O)CCC(C)(C)OC(C)=O)[C@H](OC(C)=O)C[C@@]4(C)[C@@H]3C[C@H]3O[C@]32C(C)(C)[C@@H]1OC(C)=O	>960.9 µM
C[C@H](C[C@H](OC(=O)c1cccc([N+](=O)[O-])c1)[C@@H](OC(=O)c1cccc([N+](=O)[O-])c1)C(C)(C)OC(=O)c1cccc([N+](=O)[O-])c1)C1=C2C[C@H](OC(=O)c3cccc([N+](=O)[O-])c3)[C@H]3[C@@]4(C)CCC(=O)C(C)(C)[C@@H]4CC[C@]3(C)[C@@]2(C)CC1	>1100 µM
COCC(=O)O[C@H]1C[C@H]2[C@]3(C)C(=O)C[C@]4(C)C([C@@](C)(O)C(=O)CCC(C)(C)OC(C)=O)[C@H](OC(=O)COC)C[C@@]4(C)[C@@H]3C[C@@H](O)[C@@]2(OC(=O)c2cccc(Cl)c2)C(C)(C)[C@@H]1OC(=O)COC	>1740 µM
CCCC(=O)O[C@@H](C[C@@H](C)C1=C2C[C@H](OC(=O)CCC)[C@H]3[C@@]4(C)CCC(=O)C(C)(C)[C@@H]4CC[C@]3(C)[C@@]2(C)CC1)[C@@H](OC(=O)CCC)C(C)(C)OC(=O)CCC	>1800 µM
COCC(=O)O[C@H]1C[C@H]2[C@]3(C)C(=O)C[C@]4(C)C([C@@](C)(O)C(=O)CCC(C)(C)OC(C)=O)[C@H](OC(=O)COC)C[C@@]4(C)[C@@H]3C[C@H]3O[C@]32C(C)(C)[C@@H]1OC(=O)COC	>1110 µM
CC1(C)[C@@H](O)CC[C@]2(C)[C@H]3C(=O)C=C4[C@@H]5C[C@@](C)(C(=O)OCc6ccc(OC(F)(F)F)cc6)CC[C@]5(C)CC[C@@]4(C)[C@]3(C)CC[C@@H]12	>1130 µM
CCC(=O)O[C@@H](C[C@@H](C)C1=C2C[C@H](OC(=O)CC)[C@H]3[C@@]4(C)CCC(=O)C(C)(C)[C@@H]4CC[C@]3(C)[C@@]2(C)CC1)[C@@H](OC(=O)CC)C(C)(C)OC(=O)CC	>1900 µM
COc1cc(/C=C/C(=O)O[C@H]2CC[C@]3(C)[C@H]4CC=C5[C@@H]6C[C@@](C)(C(=O)OCC(N)=O)CC[C@]6(C)CC[C@@]5(C)[C@]4(C)CC[C@H]3C2(C)C)cc(OC)c1OC	>481 µM
Nc1nc2c(ncn2[C@H]2CC[C@@H](CO)O2)c(=O)[nH]1	219 µM
CC(=O)O[C@H]1C[C@@H]2C(=CC[C@@H]3[C@@]2(C)C(=O)C[C@]2(C)C([C@@](C)(O)C(=O)CCC(C)(C)OC(C)=O)[C@H](OC(C)=O)C[C@@]32C)C(C)(C)[C@@H]1OC(C)=O	>807.1 µM
COC(=O)C1=C(CN2CCN(C(=O)Oc3ccccc3)CC2)NC(c2ncc(F)cc2F)=N[C@H]1c1ccc(F)cc1Br	8 µM
CC(=O)OCCc1c(Cl)nc2ccc(Cl)cc2c1-c1ccccc1Cl	116.4 µM
COC(=O)C1=C(CN2CCN(C(=O)Oc3ccccc3)CC2)NC(c2ncccc2F)=N[C@H]1c1ccc(F)cc1Br	3 µM
CC(=O)O[C@@H]1[C@@H](O)C[C@@H]2C(=CC[C@@H]3[C@@]2(C)C(=O)C[C@]2(C)C([C@@](C)(O)C(=O)CCC(C)(C)OC(C)=O)[C@H](O)C[C@@]32C)C1(C)C	253.5 µM
CCCC(=O)O[C@@H](C[C@@H](C)[C@]12CC[C@@]3(C)[C@@]1(C[C@H](OC(=O)CCC)[C@H]1[C@@]4(C)CCC(=O)C(C)(C)[C@@H]4CC[C@@]13C)O2)[C@@H](OC(=O)CCC)C(C)(C)OC(=O)CCC	>1900 µM

4 of the rows above, restated:

structure | value
Cc1cc(NC(=O)c2cc(-c3ccccc3)nc3ccccc23)ccc1F | >100 µM
CC1(C)[C@@H](O)CC[C@]2(C)[C@H]3C[C@H]4O[C@]45[C@@H]4C[C@@](C)(C(=O)O)CC[C@]4(C)CC[C@@]5(C)[C@]3(C)CC[C@@H]12 | 35.71 µM
CC(=O)OC(C)(C)CCC(=O)[C@](C)(O)C1[C@H](O)C[C@@]2(C)[C@@H]3CC=C4[C@@H](C[C@H](O)[C@@H](O)C4(C)C)[C@]3(C)C(=O)C[C@]12C | 66.2 µM
C[C@H](C[C@H](OC(=O)COc1cc(Cl)c(Cl)cc1Cl)[C@@H](OC(=O)COc1cc(Cl)c(Cl)cc1Cl)C(C)(C)OC(=O)COc1cc(Cl)c(Cl)cc1Cl)C1=C2C[C@H](OC(=O)COc3cc(Cl)c(Cl)cc3Cl)[C@H]3[C@@]4(C)CCC(=O)C(C)(C)[C@@H]4CC[C@]3(C)[C@@]2(C)CC1 | >1200 µM

Rows are shuffled and stem from different studies.